The results in this text go back to patent publication US11414378B2, “Anti-fungals compounds targeting the synthesis of fungal sphingolipids” (THE RESEARCH FOUNDATION FOR THE STATE UNIVERSITY OF NEW YORK, priority 2017, dated 2022).

One series deals with A549. Description: A549 toxicity. Type of series: cell-based. The conditions noted are these: for SI-A549/MIC: Tables 1-3; for SIMIC: selectivity index A549/MIC, Example 2 table.
Another series has as its system HepG2. The series is described as follows: HepG2 toxicity. The conditions noted are these: Tables 1-3. Type of series: cell-based.

On to `Cc1ccc(O)c(/C=N/NC(=O)c2cc(Br)ccc2O)c1`, for which the SI-A549/MIC with A549 was found to be 64 µg/mL. The SI-HepG2/MIC in the series on HepG2 amounted to 64 µg/mL.

`Cc1ccc(O)c(/C=N/NC(=O)c2ccc(Br)cc2Br)c1` gave an SI-A549/MIC in the series on A549 of 32 µg/mL. Also, the SI-HepG2/MIC in the series on HepG2 was determined as 16 µg/mL.

Turning to `Cc1ccc(O)c(/C=N/NC(=O)c2cc(Br)ccc2Br)c1`, in the series on A549, the SI-A549/MIC was 32 µg/mL. The SI-HepG2/MIC in the series with HepG2 is 32 µg/mL.

Consider `O=C(N/N=C/c1cc(Cl)ccc1O)c1ccc(Br)cc1Br`, for which, in the series with A549, the SI-A549/MIC stood at 256 µg/mL. Also, the SI-HepG2/MIC with HepG2 came to 256 µg/mL.

The compound `O=C(N/N=C/c1cc(Cl)ccc1O)c1cccc(F)c1F` had an SI-A549/MIC in the series with A549 of 72 µg/mL. The SI-HepG2/MIC with HepG2 was determined as 32 µg/mL.

Compound `O=C(N/N=C/c1cc(Cl)ccc1O)c1cc(Br)ccc1Br` yielded an SI-A549/MIC in the series on A549 of 236 µg/mL.

Turning to `O=C(N/N=C/c1cc(Cl)cc(Cl)c1O)c1ccc(Br)cc1Br`, the SI-A549/MIC in the series with A549 worked out at 128 µg/mL. The compound further had an SI-HepG2/MIC with HepG2 of 64 µg/mL.

As to `O=C(N/N=C/c1cc(Cl)cc(Cl)c1O)c1cc(Br)ccc1Br`, the SI-A549/MIC in the series with A549 worked out at 64 µg/mL. Moreover, in the series on HepG2, the SI-HepG2/MIC came to 64 µg/mL.

For the compound `O=C(N/N=C/c1c(O)ccc2ccccc12)c1ccc(Br)cc1Br`, in the series with A549, the SI-A549/MIC came to 133.3 µg/mL. This compound also came in with an SI-HepG2/MIC with HepG2 of 533.3 µg/mL.

In the series on A549, `O=C(N/N=C/c1c(O)ccc2ccccc12)c1cc(Br)ccc1Br` came in with an SI-A549/MIC of 128 µg/mL. Besides, the SI-HepG2/MIC in the series on HepG2 is 64 µg/mL.

For `O=C(N/N=C/c1ccc(Br)cc1O)c1cccc(Br)c1`, in the series with A549, the SI-A549/MIC came to 128 µg/mL. Besides, the SI-HepG2/MIC in the series on HepG2 amounted to 18 µg/mL.

In the case of `O=C(N/N=C/c1ccc(Br)cc1O)c1ccc(Br)cc1Br`, the SI-A549/MIC in the series with A549 stood at 1066 µg/mL. This compound also had an SI-HepG2/MIC with HepG2 of 2133.3 µg/mL.

The compound `O=C(N/N=C/c1ccc(Br)cc1O)c1cccc(F)c1F` showed an SI-A549/MIC in the series on A549 of 32 µg/mL. Further, the SI-HepG2/MIC in the series on HepG2 was 32 µg/mL.

As for `O=C(N/N=C/c1ccc(Br)cc1O)c1ccc(Br)cc1`, in the series with A549, the SI-A549/MIC was 266.6 µg/mL. The compound further returned an SI-HepG2/MIC in the series on HepG2 of 533.3 µg/mL.

Consider `O=C(N/N=C/c1ccc(Br)cc1O)c1cc(Br)ccc1Br`, for which the SI-A549/MIC in the series on A549 came out at 266.6 µg/mL. The compound also yielded an SI-HepG2/MIC in the series with HepG2 of 133.3 µg/mL.

Take `O=C(N/N=C/c1cc(Br)ccc1O)c1ccc(Br)cc1Br`: the SI-A549/MIC in the series on A549 amounted to 533.3 µg/mL. Besides, the SI-HepG2/MIC with HepG2 was 491.66 µg/mL.

In the series with A549, `O=C(N/N=C/c1cc(Br)ccc1O)c1cc(Br)ccc1Br` came in with an SI-A549/MIC of 64 µg/mL. Moreover, the SI-HepG2/MIC in the series on HepG2 came to 128 µg/mL.

Turning to `Cc1ccccc1C(=O)N/N=C/c1cc(Br)ccc1O` [Compound 1], the SIMIC in the series with A549 is listed as 32.

`O=C(N/N=C/c1cc(Br)ccc1O)c1cccc(Br)c1` [Compound 2] returned an SIMIC in the series on A549 of 64.

Take `O=C(N/N=C/c1cc(Br)cc(Br)c1O)c1ccc(Br)cc1` [Compound 13]: the SIMIC in the series with A549 amounted to 4266.6.

The compound `O=C(N/N=C/c1cc(Br)ccc1O)c1cc(Br)cc(Br)c1O` [Compound 17] came in with an SIMIC in the series with A549 of 32.

Consider `O=C(N/N=C/c1cc(Br)cc(Br)c1O)c1cnc2ccccc2c1` [drawing 62], for which the SI-A549/MIC in the series with A549 came to 128 µg/mL. This compound gave an SI-HepG2/MIC in the series with HepG2 of 128 µg/mL.

`Cc1ccc(O)c(/C=N/NC(=O)c2cc(Br)cc(Br)c2O)c1` [drawing 66] had an SI-A549/MIC with A549 of 16 µg/mL. This compound returned an SI-HepG2/MIC with HepG2 of 32 µg/mL.

With `O=C(N/N=C/c1ccc(Br)cc1O)c1cc(Br)cc(Br)c1O` [drawing 79], the SI-A549/MIC with A549 is 533.3 µg/mL. The same compound showed an SI-HepG2/MIC with HepG2 of 533.3 µg/mL.
